Biological target: TJ7.15 phage-fragment clone (WNWFDIT) (HIV-1 (HXB2 or SF162 isolate library))
Experiment: flow cytometry, yeast-displayed scFv with different TJ7.15 phage preparations

## yeast-displayed Z13e1 scFv
  % double positive cells: 40%

From patent publication US20100216659A1
